Test: release of OP-1 from PA coated disks into PBS

B1: OP-1® Osteogenic graft material: Osteogenic protein-1, a 36 kD homodimer protein in the TGI-β super-family; a bone morphogenic protein (protein, UniProt P18075 293-431, looked up)
Bone morphogenetic protein 7: STGSKQRSQNRSKTPKNQEALRMANVAENSSSDQRQACKKHELYVSFRDLGWQDWIIAPEGYAAYYCEGECAFPLNSYMNATNHAIVQTLVHFINPETVPKPCCAPTQLNAISVLYFDDSSNVILKKYRNMVVRACGCH
modifications: graft material
notes: Osteogenic protein-1, a 36 kD homodimer protein in the TGI-β super-family; a bone morphogenic protein
- mean bound at time zero (PA coated disks, after 3 hours incubation and washes): 1.685 nmol/disk
- mean release at 1 hour (PBS, 37° C.): 1.328 nmol/disk
- mean release at 1 hour as percent of the value at time zero (PBS, 37° C.): about 79%
- maximum cumulative release (after 3 days incubation at 37° C., FIG. 6): about 92%
- percent release from PA coated coupons within the first hour (incubation at 37° C. in PBS, two experiments, FIG. 5): 75-80%
